Anti-infective test results gathered from many reports (values: NIAID ChemDB through PubChem).

Shared fields: tests in culture; species: HIV-1

Rows are shuffled and stem from different studies.

compound | strain | endpoint | cell line | method | mutations | value
Cc1cn([C@H]2C[C@H](N=[N+]=[N-])[C@@H](CO)O2)c(=O)[nH]c1=O | NL4-3 WT | EC50 | MT-4 | p24 |  | <0.03 µM
CC(C)=CCc1c(O)ccc(C2COc3c(CC=C(C)C)c(O)cc(O)c3C2=O)c1O | IIIB | EC50 | MT-4 | MTT |  | >20 µg/mL
CC(=O)SCCOP(=O)(OCCSC(C)=O)OC[C@H]1O[C@@H](n2cc(C)c(=O)[nH]c2=O)C[C@@H]1N=[N+]=[N-] | LAI | EC50 | CEM + CEM TK- | RT activity |  | 0.039 µM
O=C(/C=C/c1ccc(OC2OC(CO)C(O)C(O)C2OC2OCC(O)(CO)C2O)cc1)c1ccc(O)cc1O | IIIB | EC50 | MT-4 | cytopathic effect / MTT |  | >100 µg/mL
CC(C)Nc1cccnc1N1CCN(C(=O)c2cc3cc(NS(C)(=O)=O)ccc3[nH]2)CC1 | Isolate 410 | EC90 | PBMC | p24 |  | >10 µM
COCOc1ccc(-c2oc3cc(OCOC)cc(O)c3c(=O)c2OCOC)c(OCOC)c1 | IIIB | EC50 | MT-4 | cytopathic effect / MTT |  | >200 µg/mL
CC(=O)O[C@@]12C[C@@H](C)[C@@]3(O)[C@@H](C=C(CO)C[C@]4(O)C(=O)C(C)=C[C@@H]34)[C@@H]1C2(C)C | NL4-3 | EC50 | C8166 | p24 / ELISA | gp41 (36G) fusion inhibitor resistant (V38A N42T) | >10 µM
C[C@H](Cn1cnc2c(N)ncnc21)OCP(=O)(O)O | NL4-3 | EC50 | MT-4 |  |  | 2.877 µM
Cc1cn([C@H]2C[C@H](N=[N+]=[N-])[C@@H](COP(=O)(O)O)O2)c(=O)[nH]c1=O | IIIB | EC50 | CEM + CEM-SS |  |  | 0.007 µM
CC(C)=CCc1c(O)cc2occ(-c3ccc(O)cc3)c(=O)c2c1O | IIIB | EC50 | MT-4 | MTT |  | >20 µg/mL
CC(=O)SCCOP(=O)(OCCSC(C)=O)OC[C@@H]1CC[C@H](n2cnc3c(N)ncnc32)O1 | LAI | EC50 | CEM + CEM-SS | RT activity |  | 0.00056 µM
Cc1ccnc2c1NC(=O)c1cccnc1N2C1CC1 |  | EC95 | MT-4 |  | RT-L74V K103N | >3 µM
CC(C)=CC1Oc2cc(O)ccc2-c2oc3c4c(cc(O)c3c(=O)c21)OC(C)(C)C=C4 | IIIB | EC50 | MT-4 | cytopathic effect / MTT |  | >40 µg/mL
CCCCCOC(=O)C[C@H](NP(=O)(CO[C@@H](CF)Cn1ccc2c(=O)[nH]c(N)nc21)N[C@@H](CC(=O)OCCCCC)C(=O)OCCCCC)C(=O)OCCCCC | BaL | EC50 | TZM-bl | luminescence |  | 2.62 µM
CCN(c1ncccc1NC(C)(C)C)C1CCN(C(=O)c2cc3cc(NS(C)(=O)=O)ccc3[nH]2)CC1 | IIIB | EC50 | MT-4 | p24 |  | <0.004 µM
COc1cc(O)ccc1/C=C/C(=O)c1ccc(O)cc1 | IIIB | EC50 | MT-4 | cytopathic effect / MTT |  | >20 µg/mL
O=c1[nH]cnc2c1ncn2[C@H]1CC[C@@H](CO)O1 | NL4-3 | EC50 | MDM |  | +Vpx | 2.251 µM
Cc1ccc(S(=O)(=O)c2c(C(=O)NNCCO)[nH]c3ccc(Cl)cc23)c(C)c1 | IIIB | EC50 | MT-4 | cytopathic effect / MTT |  | 0.08 µM
Nc1ncnc2c1ncn2[C@H]1CC[C@@H](CO)O1 | LAI | EC50 | CEM + CEM-SS | RT activity |  | 0.54 µM
COCOc1ccc(/C=C/C(=O)c2c(OCOC)cc(OCOC)c(CC=C(C)C)c2O)cc1OCOC | IIIB | EC50 | MT-4 | cytopathic effect / MTT |  | >100 µg/mL
CC(=O)SCCOP(=O)(OCCSC(C)=O)OC[C@@H]1CC[C@H](n2cnc3c(=O)[nH]cnc32)O1 | LAI | EC50 | MT-4 | RT activity |  | 3.4 µM
Cc1cc(C)cc(S(=O)(=O)c2c(C(N)=O)[nH]c3ccc(Cl)cc23)c1 |  | EC50 | MT-4 | cytopathic effect / MTT | RT-Y181C | 1.2 µM
O=c1[nH]cnc2c1ncn2[C@H]1CC[C@@H](CO)O1 | XM-M184V | EC90 | MT-4 | p24 | RT-M184V | 6.4 µM
Cc1ccnc2c1NC(=O)c1cccnc1N2C1CC1 |  | EC50 | MT-4 | cytopathic effect / MTT | RT-Y181C | 0.6 µM
O=C1Nc2ccc(Cl)cc2[C@@](C#CC2CC2)(C(F)(F)F)O1 | NL4-3 | EC50 | MDM |  |  | 0.071 µM
Cc1cccc(S(=O)(=O)c2c(C(=O)NNCCO)[nH]c3ccc(Cl)cc23)c1 |  | EC50 | MT-4 | cytopathic effect / MTT | RT-Y181C | 0.05 µM
CCCCCOC(=O)C[C@H](NP(=O)(CO[C@@H](CF)COc1nccc(N)n1)Oc1ccccc1)C(=O)OCCCCC | BaL | EC50 | TZM-bl | luminescence |  | 5.52 µM
Cc1cc2c3c(c1)-c1c(O)cc(-c4cc5ccc(O)cc5o4)cc1OC3(c1ccc(O)cc1O)Oc1cc(O)ccc1-2 | IIIB | EC50 | MT-4 | MTT |  | >20 µg/mL
CC[C@H](C)[C@H](NC(=O)Cc1ccccn1)C(=O)N[C@@H](Cc1ccccc1)[C@@H](O)[C@H](O)[C@H](Cc1ccccc1)NC(=O)[C@@H](NC(=O)Cc1ccccn1)[C@@H](C)CC | RF | EC90 | MT-2 | plaque count / virus yield |  | 0.9 µg/mL
COCOc1cc(OCC=C(C)C)c2c(=O)c(OCOC)c(-c3ccc(OCOC)c(OCOC)c3)oc2c1 | IIIB | EC50 | MT-4 | cytopathic effect / MTT |  | 66.7 µg/mL
Cc1cn([C@H]2C=C[C@@H](CO)O2)c(=O)[nH]c1=O | NL4-3 | EC50 | MT-4 |  | +Vpx | 2.376 µM
CC(C)(C)C(=O)OCCSP(=O)(OC[C@@H]1CC[C@H](n2cnc3c(N)ncnc32)O1)SCCOC(=O)C(C)(C)C | LAI | EC50 | CEM + CEM-SS | RT activity |  | 0.0077 µM

A second listing of 4 rows from above:

compound,strain,endpoint,cell line,method,mutations,value
O=c1[nH]cnc2c1ncn2[C@H]1CC[C@@H](CO)O1,NL4-3,EC50,MDM,,+Vpx,2.251 µM
Cc1ccnc2c1NC(=O)c1cccnc1N2C1CC1,,EC95,MT-4,,RT-L74V K103N,>3 µM
CC(C)=CCc1c(O)cc2occ(-c3ccc(O)cc3)c(=O)c2c1O,IIIB,EC50,MT-4,MTT,,>20 µg/mL
CC(C)Nc1cccnc1N1CCN(C(=O)c2cc3cc(NS(C)(=O)=O)ccc3[nH]2)CC1,Isolate 410,EC90,PBMC,p24,,>10 µM

ECn: concentration that inhibits the pathogen or its effect by n%. An empty or dashed field is not shown.